Assay results as given in patent US5902814A, “Spiro-Azabicyclic Compounds useful in therapy” (dated 1999).
pKd: −log10 of the molar value.

Amino acid sequences for entries named in this document (tags omitted). A change or cut given only in a name is not applied to a line headed by its entry.
UniProt Q05941: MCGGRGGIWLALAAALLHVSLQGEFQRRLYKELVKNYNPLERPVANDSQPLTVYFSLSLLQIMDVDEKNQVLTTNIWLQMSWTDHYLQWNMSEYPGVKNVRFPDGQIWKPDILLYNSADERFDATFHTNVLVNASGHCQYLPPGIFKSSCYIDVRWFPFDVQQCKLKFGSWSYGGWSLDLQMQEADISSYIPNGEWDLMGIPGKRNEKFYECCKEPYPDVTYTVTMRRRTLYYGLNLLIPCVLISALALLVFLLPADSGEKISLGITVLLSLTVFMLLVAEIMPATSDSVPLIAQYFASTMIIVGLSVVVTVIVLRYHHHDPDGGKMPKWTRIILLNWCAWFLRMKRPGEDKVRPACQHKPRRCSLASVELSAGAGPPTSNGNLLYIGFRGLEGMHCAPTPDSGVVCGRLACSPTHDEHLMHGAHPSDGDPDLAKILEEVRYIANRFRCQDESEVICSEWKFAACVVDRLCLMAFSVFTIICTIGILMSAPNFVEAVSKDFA

Target: α7 nAChR subtype (Rattus norvegicus, UniProt Q05941)
Assay: Test A: 125I-α-Bungarotoxin (BTX) binding to rat hippocampal membranes (affinity at α7 nAChR subtype)
Conditions: radioligand saturation curve, one site model (ENZFITTER)

Substance: ^125 I-α-Bungarotoxin
- pKd: 8.78
